Experimental data reported in US20240043504A1 (published 2024).

Assays:
[1] = biological target: SARS-COV-2 RBD extracellular domain expressed with a C-terminal myc-myc-hexahistidine tag (SARS-CoV-2); assay: SPR Biacore, mAb captured via anti-hFc, 37 C
[2] = biological target: SARS-COV-2 RBD extracellular domain expressed with a C-terminal mouse IgG2a (SARS-CoV-2); assay: SPR Biacore, mAb captured via anti-hFc, 25 C
[3] = biological target: SARS-COV-2 RBD extracellular domain expressed with a C-terminal mouse IgG2a (SARS-COV-2 RBD-mFc) (SARS-CoV-2); assay: SPR, captured mAb, RBD-mFc in solution, 37 C
[4] = biological target: SARS-CoV-2-S-RBD-mmH (RBD of SARS-CoV-2 spike, amino acids 319-541, with a 6x histidine tag and two (SARS-CoV-2)); assay: ELISA, RBD-mmH coated, supernatant 1:50, a-hFc detection

| Binder | 90 nM Ag Bound (RU) [1] [RU] | Kd [1] [nM] | t½ [1] [min] | 30 nM Ag Bound (RU) [2] [RU] | 30 nM Ag Bound (RU) [3] [RU] | also measured |
| --- | --- | --- | --- | --- | --- | --- |
| mAb11006 (antibody, V domains shown) VH: EVQLVESGGGLVQPGGSLRLSCAASGFIVSRNYMSWVRQAPGKGLEWVSVIYSGGSTFYADSVKGRFTISRHNSKNTLYLQMNSLKAEDTAVYYCARELRGYFDYWGQGTLVTVSS VL: DIQLTQSPSFLSASVGDRVTITCWASQGISSYLAWYQQKPGKAPKLLIYAASTLQSGVPSRFSGSGSGTEFTLTISSLQPEDFATYYCQLLNSYPYTFGQGTKLEIKR [mAb11006, listing 1 of 2 here] | 92 | 23.5 | 0.8 | 73 | – | – |
| mAb11006 (antibody, V domains shown) VH: EVQLVESGGGLVQPGGSLRLSCAASGFIVSRNYMSWVRQAPGKGLEWVSVIYSGGSTFYADSVKGRFTISRHNSKNTLYLQMNSLKAEDTAVYYCARELRGYFDYWGQGTLVTVSS VL: DIQLTQSPSFLSASVGDRVTITCWASQGISSYLAWYQQKPGKAPKLLIYAASTLQSGVPSRFSGSGSGTEFTLTISSLQPEDFATYYCQLLNSYPYTFGQGTKLEIKR [mAb11006, listing 2 of 2 here] | – | – | – | – | 87 | – |
| mAb11008 (antibody, V domains shown) VH: EVQLVESGGGLVQPGGSLRLSCAASGFTVSSNYMTWVRQAPGKGLEWVSVIYSGGSTFYADSVKGRFTISRHNSENTLYLQMNSLRAEDTAVYYCARDLAAAGTDYWGQGALVTVSS VL: DIQLTQSPSFLSASVGDRVTITCWASQGISSYLAWYQQKPGKAPKLLIYAASTLQSGVPSRFSGSGSGTEFTLTISSLQPDDFATYYCQHLNSYLYTFGQGTKLEIKR [mAb11008, listing 1 of 2 here] | – | – | – | – | 82 | – |
| mAb11008 (antibody, V domains shown) VH: EVQLVESGGGLVQPGGSLRLSCAASGFTVSSNYMTWVRQAPGKGLEWVSVIYSGGSTFYADSVKGRFTISRHNSENTLYLQMNSLRAEDTAVYYCARDLAAAGTDYWGQGALVTVSS VL: DIQLTQSPSFLSASVGDRVTITCWASQGISSYLAWYQQKPGKAPKLLIYAASTLQSGVPSRFSGSGSGTEFTLTISSLQPDDFATYYCQHLNSYLYTFGQGTKLEIKR [mAb11008, listing 2 of 2 here] | 38 | 10.6 | 7.6 | 69 | – | – |
| mAb10954 (antibody, V domains shown) VH: EVQLVESGGGLVQPGGSLRLSCAASGITVSSNYMSWVRQAPGKGLEWVSLIYSGGSTYYADSVKGRFTISRDNSKNTLYLQMNSLRVEDTAVYYCARDHGMAAAGYNYWGQGTLVTVSS VL: DIQMTQSPSSLSASVGDRVTITCQASQDINKYLNWYQQKPGKAPKLLIYDASNLETGVPSRFSGSGSGTDFTFTINSLQPEDFATYFCQQYDNLPPAFGQGTKVEIKR | – | – | – | – | – | Binding Signal (absorbance at 450 nm) [4]: 1.96 absorbance at 450 nm |
| mAb10938 (antibody, V domains shown) VH: EVQLVESGGGLVQPGGSLRLSCAVSGFTVSSNYMSWVRQAPGKGLEWVSLIYSGGSTFYADSVKGRFTISRHNSKNTLYLQMNSLRAEDTAVYYCAREGGYSYDYNYWGQGTLVTVSS VL: DIQMTQSPSSLSASVGDRVTITCQASQDIRNYLNWYQQKPGKAPKLLIYDASNLETGVPSRFSGIGSGTDFTFTISSLQPEDIATYYCQQYDNLPITFGQGTRLEIKR [mAb10938, listing 1 of 2 here] | 100 | 10.5 | 10.3 | 47 | – | – |
| mAb10935 (antibody, V domains shown) VH: EVQLVESGGGLVQPGGSLRLSCAASGFTVSSNYMSWVRQAPGKGLEWVSLIYSGGSTYYADSVKGRFTISRHNSKNTLYLQMNSLRSEDTAVYYCARVPLGDYYYGMDVWGQGTTVTVSS VL: DIQMTQSPSSLSASVGDRVTITCQASQDINKYLNWYQQKPGKAPKLLIYDASNLETGVPSRFSGSGSGTDFTFTISSLQPEDIATYYCQQSDNLPLTFGGGTKVEIKR [mAb10935, listing 1 of 2 here] | 75 | 85.6 | 0.3 | 88 | – | – |
| mAb10935 (antibody, V domains shown) VH: EVQLVESGGGLVQPGGSLRLSCAASGFTVSSNYMSWVRQAPGKGLEWVSLIYSGGSTYYADSVKGRFTISRHNSKNTLYLQMNSLRSEDTAVYYCARVPLGDYYYGMDVWGQGTTVTVSS VL: DIQMTQSPSSLSASVGDRVTITCQASQDINKYLNWYQQKPGKAPKLLIYDASNLETGVPSRFSGSGSGTDFTFTISSLQPEDIATYYCQQSDNLPLTFGGGTKVEIKR [mAb10935, listing 2 of 2 here] | – | – | – | – | 101 | – |
| mAb10938 (antibody, V domains shown) VH: EVQLVESGGGLVQPGGSLRLSCAVSGFTVSSNYMSWVRQAPGKGLEWVSLIYSGGSTFYADSVKGRFTISRHNSKNTLYLQMNSLRAEDTAVYYCAREGGYSYDYNYWGQGTLVTVSS VL: DIQMTQSPSSLSASVGDRVTITCQASQDIRNYLNWYQQKPGKAPKLLIYDASNLETGVPSRFSGIGSGTDFTFTISSLQPEDIATYYCQQYDNLPITFGQGTRLEIKR [mAb10938, listing 2 of 2 here] | – | – | – | – | 76 | – |
| mAb11004 (antibody, V domains shown) VH: QVQLVESGGGVVQPGRSLRLSCVASGFTFSIYGMDWVRQAPGKGLEWVAVISYDGSNKYYADSVKGRFTISRDNSKNTLYLQMNSLRPEDTAVYYCAKDREAAADAFDIWGQGTMVTVSS VL: DIQMTQSPSSVSASVGDRVTITCRASQGISSWLAWYQQKPGKAPKLLIYAASSLHSGVPSRFSGSGSGTDFTLTISSLQPEDFATYYCQQANSFRLTFGGGTKVEIKR [mAb11004, listing 1 of 2 here] | 79 | 0.848 | 7.8 | 66 | – | – |
| mAb11004 (antibody, V domains shown) VH: QVQLVESGGGVVQPGRSLRLSCVASGFTFSIYGMDWVRQAPGKGLEWVAVISYDGSNKYYADSVKGRFTISRDNSKNTLYLQMNSLRPEDTAVYYCAKDREAAADAFDIWGQGTMVTVSS VL: DIQMTQSPSSVSASVGDRVTITCRASQGISSWLAWYQQKPGKAPKLLIYAASSLHSGVPSRFSGSGSGTDFTLTISSLQPEDFATYYCQQANSFRLTFGGGTKVEIKR [mAb11004, listing 2 of 2 here] | – | – | – | – | 83 | – |
| mAb10922 (antibody, V domains shown) VH: EVQLVESGGGLVQPGGSLRLSCAASGFTFSIYEMNWVRQAPGKGLEWVSYITSSGTTIYYADSVKGRFTISRDNAKNSLYLQMNSLRAEDTAVYYCASSSSSGYYFDYWGQGTLVTVSS VL: not shown | 130 | 8.89 | 1.2 | 80 | – | – |
| mAb10966 (antibody, V domains shown) VH: EVQLVESGGGLVQPGGSLRLSCAASGLTVSSNYMSWVRQAPGKGLEWVSVIYSGGSTFYADSVKGRFTISRDNSKNTLYLQMNSLRPEDTAVYYCAREGRIAATGYGMDVWGQGTTVTVSS VL: DIQMTQSPSSLSASVGDRVTITCQASQDISNYLNWYQQKPGKAPKLLIYDASNLGTGVPSRFSGSRSGTDFTFTISSLQPEDIATYYCHQYDNLPQTFGPGTKVDIKR [mAb10966, listing 1 of 2 here] | 118 | 3.79 | 6.9 | 73 | – | – |
| mAb10966 (antibody, V domains shown) VH: EVQLVESGGGLVQPGGSLRLSCAASGLTVSSNYMSWVRQAPGKGLEWVSVIYSGGSTFYADSVKGRFTISRDNSKNTLYLQMNSLRPEDTAVYYCAREGRIAATGYGMDVWGQGTTVTVSS VL: DIQMTQSPSSLSASVGDRVTITCQASQDISNYLNWYQQKPGKAPKLLIYDASNLGTGVPSRFSGSRSGTDFTFTISSLQPEDIATYYCHQYDNLPQTFGPGTKVDIKR [mAb10966, listing 2 of 2 here] | – | – | – | – | 92 | – |
| mAb10930 (antibody, V domains shown) VH: EVQLVESGGGLVQPGRSLRLSCAASGFTFDDYAMYWVRQAPGKGLEWVSGISWNSGSIGYADSVKGRFTISRDNAKNSLYLQMNSLRAADTALYYCAKDKDWNSRGYYYYGMDVWGQGTTVTVSS VL: not shown [mAb10930, listing 1 of 2 here] | 42 | 81.4 | 0.6 | 61 | – | koff [1]: 0.0187 s⁻¹; kon [1]: 230000 M⁻¹ s⁻¹ |
| mAb10930 (antibody, V domains shown) VH: EVQLVESGGGLVQPGRSLRLSCAASGFTFDDYAMYWVRQAPGKGLEWVSGISWNSGSIGYADSVKGRFTISRDNAKNSLYLQMNSLRAADTALYYCAKDKDWNSRGYYYYGMDVWGQGTTVTVSS VL: not shown [mAb10930, listing 2 of 2 here] | – | – | – | – | 72 | – |
| mAb10985 (antibody, V domains shown) VH: EVQLVESGGGLVQPGRSLRLSCAASGFTFDDYAMHWVRQAPGKGLEWVSGISWNRGSIGYADSVKGRFTISRDNAKNSLYLQMSSLRAEDTALYYCAKDGERWDSVVVPSARNGMDVWGQGTTVTVSS VL: QSVLTQPPSVSGAPGQRVTISCTGSSSNIGAGYDVHWYQQLPGTAPKLLIYGNSNRPSGVPDRFSGSKSGTSASLAITGLQAEDEADYYCQSYDSSLSGSYVFGTGTKVTVLG [mAb10985, listing 1 of 2 here] | 134 | 1.65 | 2.7 | 77 | – | – |
| mAb10985 (antibody, V domains shown) VH: EVQLVESGGGLVQPGRSLRLSCAASGFTFDDYAMHWVRQAPGKGLEWVSGISWNRGSIGYADSVKGRFTISRDNAKNSLYLQMSSLRAEDTALYYCAKDGERWDSVVVPSARNGMDVWGQGTTVTVSS VL: QSVLTQPPSVSGAPGQRVTISCTGSSSNIGAGYDVHWYQQLPGTAPKLLIYGNSNRPSGVPDRFSGSKSGTSASLAITGLQAEDEADYYCQSYDSSLSGSYVFGTGTKVTVLG [mAb10985, listing 2 of 2 here] | – | – | – | – | 87 | – |
| mAb10939 (antibody, V domains shown) VH: EVQLVESGGGLVQPGGSLRLSCAASGLTVSSNYMNWVRQVPGKGLEWVSVIYSGGSKFYVDSVKGRFTISRHNSKNTLYLQMNSLRPEDTAVYYCTRDAQYYGMDVWGQGTTVTVSS VL: DIQMTQSPSSLSASVGDRVTITCRASQSISTYLHWYQQKPGEAPKLLIYAASSLQSGVPSRFSGSGSGTDFTLTISSLQPEDFATYYCQQSYSTPPEIFGQGTKLEIKR [mAb10939, listing 1 of 2 here] | 90 | 39.5 | 1.2 | 67 | – | – |
| mAb10939 (antibody, V domains shown) VH: EVQLVESGGGLVQPGGSLRLSCAASGLTVSSNYMNWVRQVPGKGLEWVSVIYSGGSKFYVDSVKGRFTISRHNSKNTLYLQMNSLRPEDTAVYYCTRDAQYYGMDVWGQGTTVTVSS VL: DIQMTQSPSSLSASVGDRVTITCRASQSISTYLHWYQQKPGEAPKLLIYAASSLQSGVPSRFSGSGSGTDFTLTISSLQPEDFATYYCQQSYSTPPEIFGQGTKLEIKR [mAb10939, listing 2 of 2 here] | – | – | – | – | 92 | – |
